Results of unrelated studies side by side (data: NIAID ChemDB).

Common to all: tests in culture; agent: HIV-1; cells: MT-4; method: MTT; endpoint: EC50

Rows are shuffled and stem from different studies. Blank or dashed fields: not listed here. ECn: concentration that inhibits the pathogen or its effect by n%.

compound,changes,strain or isolate,result
Cc1cc(C=O)cc(C)c1Oc1ncc([N+](=O)[O-])c(Nc2ccc(C#N)cc2)n1,,IIIB,0.6164 µM
Nc1ccn([C@H]2CC[C@@H](CO)O2)c(=O)n1,,IIIB,0.0994 µg/mL
C#Cc1ccc(Nc2nccc(Oc3c(C)cc(-c4cn(CC(=O)Nc5ccc(Br)cc5)nn4)cc3C)n2)cc1,K103N,IIIB,>19.78 µM
N#Cc1ccc(Nc2nc(Oc3c(Br)cc(Br)cc3Br)ncc2N)cc1,,IIIB,0.05 µM
C#Cc1ccc(Nc2nccc(Oc3c(C)cc(-c4cn(Cc5ccc(S(N)(=O)=O)cc5)nn4)cc3C)n2)cc1,E138K,IIIB,0.21 µM
O=C(CSc1nc2ncccc2n1-c1ccc(C2CC2)c2ccccc12)Nc1ccc(C(=O)O)cc1Cl,,RES056,>1.12 µM
C#Cc1ccc(Nc2nccc(Oc3c(C)cc(-c4cn(CC(=O)Nc5ccc(F)cc5)nn4)cc3C)n2)cc1,,RES056,>1.41 µM
CC(=O)Nc1cnc(Oc2c(C)cc(Br)cc2C)nc1Nc1ccc(C#N)cc1,,RES056,>147.6 µM
CCC(NC(=O)c1ccc(NC(=O)CSc2nc3ncccc3n2-c2ccc(C3CC3)c3ccccc23)c(Cl)c1)C(=O)O,,IIIB,0.087 µM
C=C1[C@H](CO)[C@@H](O)C[C@@H]1n1cnc2c(=O)[nH]c(N)nc21,,IIIB,0.0022 µM
Cc1cc(C)c(Oc2ccc(N)c(NC3CCN(Cc4ccncc4)CC3)n2)c(C)c1,Resistant strain (K103N + Y181C),IIIB,2.5 µM
Cc1ccnc2c1NC(=O)c1cccnc1N2C1CC1,K103N,IIIB,3.551 µM
N#Cc1ccc(NC(=O)CSc2nc3ncccc3n2-c2ccc(C3CC3)c3ccccc23)c(Br)c1,,IIIB,>2.78 µM
N#Cc1ccc(Nc2nc(Oc3c(Cl)cc(Cl)cc3Cl)ncc2[N+](=O)[O-])cc1,,RES056,>25.2 µM
CCC(C)(NC(=O)c1ccc(NC(=O)CSc2nc3ncccc3n2-c2ccc(C3CC3)c3ccccc23)c(Cl)c1)C(=O)O,,RES056,>5.04 µM
C#Cc1ccc(Nc2nccc(Oc3c(C)cc(-c4cn(CC(=O)Nc5ccc(S(C)(=O)=O)cc5)nn4)cc3C)n2)cc1,Y188L,IIIB,>6.36 µM
N#Cc1ccc(Nc2nc(Oc3c(Cl)cccc3Cl)ncc2NC(=O)C(F)(F)F)cc1,,IIIB,0.141 µM
Cc1cccc(C)c1Oc1ccnc(Nc2ccc(C#N)cc2)n1,L100I,IIIB,0.054 µM
CCOC(=O)C(=O)CC(=O)c1cccc(Oc2ccnc(Nc3ccc(C#N)cc3)n2)c1,Y181C,IIIB,>13 µM
CC(Sc1nc2ncccc2n1-c1ccc(C2CC2)c2ccccc12)C(=O)Nc1ccc(C(N)=O)cc1Cl,,IIIB,0.38 µM
Cc1cc(C#Cc2cccc(N)c2)cc(C)c1Oc1ccnc(NC2CCN(Cc3ccc(S(N)(=O)=O)cc3)CC2)n1,Y181C,IIIB,0.027 µM
N#Cc1ccc(Nc2nccc(Oc3ccc(C(=O)CC(=O)C(=O)O)cc3)n2)cc1,L100I,IIIB,>48 µM
CC(Sc1nc2ncccc2n1-c1ccc(C2CC2)c2ccccc12)C(=O)Nc1ccc(C(N)=O)cc1Br,,RES056,>3.05 µM
Cc1cc(C#N)cc(C)c1Oc1ncc(NC(=O)C(F)(F)F)c(Nc2ccc(C#N)cc2)n1,,RES056,5.06 µM
Cc1cc(C#Cc2cccc(N)c2)cc(C)c1Oc1ccnc(NC2CCN(c3cccc(C(N)=O)c3)CC2)n1,Y188L,IIIB,0.13 µM
CC(C)Nc1cccnc1N1CCN(C(=O)c2cc3cc(NS(C)(=O)=O)ccc3[nH]2)CC1,Resistant strain (K103N + Y181C),IIIB,>36 µM
Cc1cc(C#Cc2ccccc2)cc(C)c1Oc1ccnc(NC2CCN(Cc3ccc(S(N)(=O)=O)cc3)CC2)n1,F227L + V106A,IIIB,0.182 µM
Cc1ccnc2c1NC(=O)c1cccnc1N2C1CC1,Y188L,IIIB,>15 µM
Cc1cn([C@H]2C[C@H](N=[N+]=[N-])[C@@H](CO)O2)c(=O)[nH]c1=O,,92BR014 (subtype B),0.001 µg/mL
CCOC(=O)c1ccc(NC(=O)CSc2nc3ncccc3n2-c2ccc(C3CC3)c3ccccc23)c(Cl)c1,,RES056,>3.14 µM
Cc1cc(/C=C/c2ccccc2)cc(C)c1Oc1ccnc(Nc2ccc(C#N)cc2)n1,Y188L,IIIB,1.65 µM
CC(=O)Nc1cnc(Oc2c(C)cc(C#N)cc2C)nc1Nc1ccc(C#N)cc1,,IIIB,1.86 µM
Cc1ccc(/C=C/c2cc(C)c(Oc3ccnc(Nc4ccc(C#N)cc4)n3)c(C)c2)cc1,Y188L,IIIB,1.326 µM
c1cc(CN2CCCNCCNCCCNCC2)ccc1CN1CCCNCCNCCCNCC1,,UG92029 (subtype A),0.008 µg/mL
CONC(=O)c1ccc(NC(=O)CSc2nc3ncccc3n2-c2ccc(C3CC3)c3ccccc23)c(Cl)c1,,IIIB,0.2 µM
Cc1cn([C@H]2C[C@@H](N=[N+]=[N-])[C@@H](CO)O2)c(=O)[nH]c1=O,,IIIB,0.0065 µg/mL
CC(=O)c1ccc(NC(=O)CSc2nc3ncccc3n2-c2ccc(C3CC3)c3ccccc23)c(Br)c1,,RES056,>2.89 µM
Cc1cc(C)c(Nc2ccc([N+](=O)[O-])c(NC3CCN(Cc4ccc(S(N)(=O)=O)cc4)CC3)n2)c(C)c1,,IIIB,0.0051 µg/mL
Cc1cc(C#Cc2ccc(N)cc2)cc(C)c1Oc1ccnc(Nc2ccc(C#N)cc2)n1,L100I,IIIB,0.259 µM

Again, the opening 4 rows:

compound | changes | strain or isolate | result
Cc1cc(C=O)cc(C)c1Oc1ncc([N+](=O)[O-])c(Nc2ccc(C#N)cc2)n1 |  | IIIB | 0.6164 µM
Nc1ccn([C@H]2CC[C@@H](CO)O2)c(=O)n1 |  | IIIB | 0.0994 µg/mL
C#Cc1ccc(Nc2nccc(Oc3c(C)cc(-c4cn(CC(=O)Nc5ccc(Br)cc5)nn4)cc3C)n2)cc1 | K103N | IIIB | >19.78 µM
N#Cc1ccc(Nc2nc(Oc3c(Br)cc(Br)cc3Br)ncc2N)cc1 |  | IIIB | 0.05 µM